For experiment [1], the system named is Podosphaera fuliginea. Nature of the experiment: Fungicidal activity against Podosphaera fuliginea infected in 24 hr compound pre-treated cucumber plant assessed as disease control measured after 10 days.
Experiment [2] relates to Pyricularia oryzae. Kind of experiment: Fungicidal activity against Magnaporthe oryzae infected in 24 hr compound pre-treated Oryza sativa cv. Chukyoasahi assessed as disease control measured after 10 days.
Experiment [3] relates to Rhizoctonia solani. Kind of experiment: Fungicidal activity against Rhizoctonia solani infected in 24 hr compound pre-treated Oryza sativa cv. Chukyoasahi assessed as disease control measured after 10 days.

Molecules are shown by their SMILES.

For the compound `[N-]=[N+]=Nc1c(C(F)(F)F)cc([N+](=O)[O-])c(Nc2ncc(C(F)(F)F)cc2Cl)c1[N+](=O)[O-]`, the I90 stood at 63 ppm in experiment [1], 16 ppm in experiment [2] and 250 ppm in experiment [3].

The values above are taken from ChEMBL document CHEMBL3045201, “Quantitative Structure-Activity Relationships of Fluazinam and Related Fungicidal N-phenylpyridinamines” (1996).
